Source: US20260176683A1 (RIJKSUNIVERSITEIT GRONINGEN, published 2026)
“And” between values parts separate entries of the source, which are not always exact repeats. Equal values may be shown once.

Legend:
C-reactive protein = molecular target: T1, C-reactive protein (UniProt P02741 19-224)
T1 sequence: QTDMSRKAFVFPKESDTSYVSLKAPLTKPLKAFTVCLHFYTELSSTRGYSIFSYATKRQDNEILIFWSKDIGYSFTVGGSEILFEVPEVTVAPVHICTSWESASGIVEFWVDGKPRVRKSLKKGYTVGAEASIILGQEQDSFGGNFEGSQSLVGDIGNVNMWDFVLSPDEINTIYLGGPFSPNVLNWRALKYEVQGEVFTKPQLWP

Streptavidin = Streptavidin (UniProt P22629 37-163)
Bovine Thrombin = Bovine Thrombin (bovine, UniProt P00735 318-625)

B1:  (other)
chain 1: MHHHHHHENLYFQSSGGIFTKEDLINLKLYVRKGLSLPTRQDEVEAYLGYKKIDVAGLEPKDIKLLFDEIHNHALNWNDVEQAVLQQSLDLDIAAKNIISTGNEIINLINQMPITLRVKTLLGDITDKQLENITYESADHEVASALKDILDDMKGDINRHQTTTENVRKKVSDYRITLTGGELSSGDKVNGLEPQVKTKYDLMEKSNMRKSIKELDEKIKEKRQRIEQLKKDYDKFVGLSFTGAIGGIIAMAITGGIFGAKAENARKEKNALISEVAELESKVSSQRALQTALEALSLSFSDIGIRMVDAESALNHLDFMWLSVLNQITESQIQFAMINNALRLTSFVNKFQQVITPWQSVGDSARQLVDIFDEAIKEYKKVYG
chain 2: MSYYHHHHHHDYDIPTTENLYFQGAEISTFPHSGLSYPDINFKIFSQGVKNISHLAQFKTTGVEVLQEKALRVSLYSQRLDVIVRESLSSLQVKLENTLALTYFTTLEEIDEALISQDIDEESKSEMRKERINIIKNLSNDITQLKQLFIEKTELLDKSSSDLHNVVIIEGTDKVLQAEQLRQKQLTEDIATKELERKEIEKKRDKIIEALDVIREHNLVDAFKDLIPTGENLSELDLAKPEIELLKQSLEITKKLLGQFSEGLKYIDLTDARKKLDNQIDTASTRLTELNRQLEQSEKLIAGVNAIIKIDQEKSAVVVEAEKLSRAWHIFIHEITALQGTSLNEVELSKPLIKQQIYLESLIKQLI
In the case of B1, the koff (C-reactive protein) is reported as 27 s⁻¹ and 36.8 s⁻¹, the kon (C-reactive protein) is reported as 3.09e+08 M⁻¹ s⁻¹ and the koff (Streptavidin) is reported as 13.3 s⁻¹. For the same binder, the kon (Streptavidin) was 4.73e+08 M⁻¹ s⁻¹, the koff (Bovine Thrombin) was 121 s⁻¹ and the kon (Bovine Thrombin) was 1.51e+08 M⁻¹ s⁻¹.
